Compound potency records, mixed from different reports. Data source: NIAID ChemDB in PubChem.

All rows: growth or infection tests; agent: Candida albicans; measure: MIC

Blank or dashed fields: not listed here. Rows are shuffled and stem from different studies.

compound | strain | value
C[C@@H](n1cnc2cc(N3CCOC3=O)ccc2c1=O)[C@](O)(Cn1cncn1)c1ccc(F)cc1F | 406 strains | 0.31 µg/mL
C[C@H]1[C@H](O)[C@@H](C)/C=C/C=C/C=C/C=C/C=C/C=C/C=C/[C@H](O[C@@H]2O[C@H](C)[C@@H](O)[C@H](N)[C@@H]2O)C[C@@H]2O[C@](O)(C[C@@H](O)C[C@@H](O)CC[C@H](O)[C@@H](O)C[C@@H](O)CC(=O)O[C@H]1C)C[C@H](O)[C@H]2C(=O)O | 73 | 0.48 µg/mL
CCC(C)n1ncn(-c2ccc(N3CCN(c4ccc(OC[C@H]5CO[C@](Cn6cncn6)(c6ccc(Cl)cc6Cl)O5)cc4)CC3)cc2)c1=O | Isolate CA-6 | >8 µg/mL
C[C@H](n1nnnc1CCN1CCN(c2ccccc2Cl)CC1)[C@](O)(Cn1cncn1)c1ccc(F)cc1F | V-01-191A-261 (resistant) | 8 µg/mL
Clc1ccc(C(Cn2ccnc2)OC/C=C/c2ccccc2)c(Cl)c1 | Y0109 | 4 µg/mL
N=C(N)c1ccc2nc(-c3ccc(-c4nc5ccc(C(=N)N)cc5[nH]4)[nH]3)[nH]c2c1 | Isolate 3022 fluconazole-resistant | 0.78 µg/mL
CNc1ccc(C(=O)CC(O)CCC(C)C2OC(=O)CC(O)CC(=O)CC(O)CC(O)CC(O)CC(O)CC3(O)CC(O)C(C(=O)N4CCN(C)CC4)C(CC(O[C@@H]4O[C@H](C)[C@@H](O)[C@H](NC(=O)CN5CCN(CCO)CC5)[C@@H]4O)/C=C/C=C/C=C/C=C\C=C/C=C/C=C/C2C)O3)cc1 | 73 | 0.03 µg/mL
CCCSc1nc(C(N)=O)cnc1CCC | ATCC 44859 | >31.25 µg/mL
Cc1ccc(C(Cn2ccnc2)OC/C=C/c2ccccc2)cc1 | CA12 | >128 µg/mL
CC[C@@H]([C@H](C)O)n1ncn(-c2ccc(N3CCN(c4ccc(OC[C@@H]5CO[C@@](Cn6cncn6)(c6ccc(F)cc6F)C5)cc4)CC3)cc2)c1=O | Isolate CA-4 | >4 µg/mL
Clc1ccc(C(Cn2ccnc2)OCc2cccc3ccccc23)c(Cl)c1 | CDCB385 | 128 µg/mL
CCCCCOc1ccc(-c2ccc(-c3ccc(C(=O)N[C@H]4CCCNC(=O)C5C[C@@H](O)N5C(=O)C(C(C)O)NC(=O)C(CCc5ccc(O)cc5)NC(=O)C5C[C@@H](O)CN5C(=O)C(C(C)O)NC4=O)cc3)cc2)cc1 | ATCC 62376 | 1.56 µg/mL
CCCCc1ncc(C(N)=S)nc1Sc1ccccc1 | ATCC 44859 | >31.25 µg/mL
CCCCCOc1ccc(-c2ccc(-c3ccc(C(=O)N[C@H]4CCCNC(=O)[C@@H]5C[C@H](NC)CN5C(=O)[C@H]([C@@H](C)O)NC(=O)[C@H](CCc5ccc(O)cc5)NC(=O)[C@@H]5C[C@@H](O)CN5C(=O)[C@H]([C@@H](C)O)NC4=O)cc3)cc2)cc1 | ATCC 10231 | 0.2 µg/mL
CNc1ccc(C(=O)CC(O)CCC(C)C2OC(=O)CC(O)CC(=O)CC(O)CC(O)CC(O)CC(O)CC3(O)CC(O)C(C(=O)NCCN(C)C)C(CC(O[C@@H]4O[C@H](C)[C@@H](O)[C@H](NC(=O)CN5CCN(CCO)CC5)[C@@H]4O)/C=C/C=C/C=C/C=C\C=C/C=C/C=C/C2C)O3)cc1 | 73 | 0.12 µg/mL
C[C@H](n1nnnc1CCN1CCN(c2ccc(F)cc2)CC1)[C@](O)(Cn1cncn1)c1ccc(F)cc1F |  | 2 µg/mL
COc1cc(O)c2c(c1)C(=O)c1c(cc3c(c1O)-c1c(cc(C)c(C(=O)NCC(=O)O)c1O)[C@H](OC1OC(C)C(N(C)C)C(OC4OCC(O)C(O)C4O)C1O)[C@H]3O)C2=O | A9540 | 3.1 µg/mL
CCCCCOc1ccc(-c2ccc(-c3ccc(CN[C@H]4CCCNC(=O)C5C[C@H](N)CN5C(=O)C(C(C)O)NC(=O)C(CCc5ccc(O)cc5)NC(=O)C5C[C@@H](O)CN5C(=O)C(C(C)O)NC4=O)cc3)cc2)cc1 | ATCC 10231 | 0.39 µg/mL
Cc1ccc(C(Cn2ccnc2)OCc2ccc(C(C)(C)C)cc2)cc1 | CA6 | 64 µg/mL
CCCCCOc1ccc(-c2ccc(-c3ccc(C(=O)N[C@H]4CCCNC(=O)C5C[C@H](NCCN)CN5C(=O)C(C(C)O)NC(=O)C(CCc5ccc(O)cc5)NC(=O)C5C[C@@H](O)CN5C(=O)C(C(C)O)NC4=O)cc3)cc2)cc1 | ATCC 62376 | 0.39 µg/mL
CCCCSc1nc(C(N)=S)cnc1CCCC | ATCC 44859 | >31.25 µg/mL
Cc1c(O)cccc1C(=O)N[C@@H](CSc1ccccc1)[C@H](O)CN1C[C@H]2CCCC[C@H]2C[C@H]1C(=O)NC(C)(C)C | I1 | 64 µg/mL
CC(O)C1NC(=O)C(CCc2ccc(O)cc2)NC(=O)C2C[C@@H](O)CN2C(=O)C(C(C)O)NC(=O)[C@@H](NC(=O)c2ccc(N3CCN(c4ccc(O)cc4)CC3)cc2)CCCNC(=O)C2C[C@H](N)CN2C1=O | ATCC 62376 | 25 µg/mL
C[C@@H](n1cnc2cc(N(C)C)ccc2c1=O)[C@](O)(Cn1cncn1)c1ccc(F)cc1F | 76 strains | 5 µg/mL
OC(Cn1cncn1)(Cn1nnc(CCN2CCN(c3ccccc3Cl)CC2)n1)c1ccc(F)cc1F |  | 2 µg/mL
CC(C)Cc1ncc(C(N)=O)nc1Sc1ccccc1 | ATCC 44859 | >31.25 µg/mL
Cc1cc(Br)c2ncn([C@H](C)[C@](O)(Cn3cncn3)c3ccc(F)cc3F)c(=O)c2c1 | 76 strains | 10 µg/mL
CCCc1ncc(C(N)=O)nc1SCC | ATCC 44859 | >31.25 µg/mL
CCCCOc1ccccc1N1CCN(CCc2nnn(CC(O)(Cn3cncn3)c3ccc(F)cc3F)n2)CC1 | V-01-191A-261 (resistant) | 2 µg/mL
C[C@@H](c1nc(-c2ccc(C#N)cc2)cs1)[C@](O)(Cn1cncn1)c1ccc(F)cc1F | 406 strains | ≤0.03 µg/mL
CCCCCOc1ccc(-c2ccc(-c3ccc(C(=O)N[C@H]4CCCNC(=O)[C@@H]5C[C@H](N)CN5C(=O)[C@H](CCC(=O)O)NC(=O)C(CCc5ccc(O)cc5)NC(=O)[C@@H]5C[C@@H](O)CN5C(=O)[C@H]([C@@H](C)O)NC4=O)cc3)cc2)cc1 | ATCC CCH442 | 0.2 µg/mL
C[C@@H](n1cnc2cc(N3CCOCC3)ccc2c1=O)[C@](O)(Cn1cncn1)c1ccc(F)cc1F | 76 strains | 0.31 µg/mL
C[C@H](n1nnc(CCN2CCN(c3ccc(F)cc3)CC2)n1)[C@](O)(Cn1cncn1)c1ccc(F)cc1F |  | 2 µg/mL
Cc1ccc(C(C)C)cc1 | H37 | 5 µg/mL
CNc1ccc(C(=O)CC(O)CCC(C)C2OC(=O)CC(O)CC(=O)CC(O)CC(O)CC(O)CC(O)CC3(O)CC(O)C(C(=O)N4CCN(CCO)CC4)C(CC(O[C@@H]4O[C@H](C)[C@@H](O)[C@H](NC(=O)CCN5CCCCC5)[C@@H]4O)/C=C/C=C/C=C/C=C\C=C/C=C/C=C/C2C)O3)cc1 | 200 | 0.06 µg/mL
CCCCCOc1ccc(-c2ccc(-c3ccc(C(=O)N[C@H]4CCCNC(=O)C5C[C@H](N)CN5C(=O)C(C(C)O)NC(=O)C(c5ccc(O)cc5)NC(=O)C5CC(O)CN5C(=O)C(C(C)O)NC4=O)cc3)cc2)cc1 | ATCC 62376 | 50 µg/mL
CCCCSc1nc(C(N)=O)cnc1C(C)(C)C | ATCC 44859 | >31.25 µg/mL
CCCCCCCCN[C@H]1C[C@H]2C(=O)NCCC[C@H](NC(=O)c3ccc(-c4ccc(-c5ccc(OCCCCC)cc5)cc4)cc3)C(=O)N[C@@H]([C@@H](C)O)C(=O)N3C[C@H](O)C[C@H]3C(=O)N[C@@H](CCc3ccc(O)cc3)C(=O)N[C@@H]([C@@H](C)O)C(=O)N2C1 | ATCC 10231 | 6.25 µg/mL
Cc1ccc(C(Cn2ccnc2)OCc2cccc3ccccc23)cc1 | CDCB385 | 128 µg/mL
OC(Cn1cncn1)(Cn1nnnc1CCN1CCN(c2ccccc2Cl)CC1)c1ccc(F)cc1F |  | 4 µg/mL
CCSc1nc(C(N)=S)cnc1C(C)(C)C | ATCC 44859 | >31.25 µg/mL

The last 3 rows once more:

compound | strain | value
Cc1ccc(C(Cn2ccnc2)OCc2cccc3ccccc23)cc1 | CDCB385 | 128 µg/mL
OC(Cn1cncn1)(Cn1nnnc1CCN1CCN(c2ccccc2Cl)CC1)c1ccc(F)cc1F |  | 4 µg/mL
CCSc1nc(C(N)=S)cnc1C(C)(C)C | ATCC 44859 | >31.25 µg/mL